As usually defined, the IC50 is the concentration needed to halve the response being measured.

For one molecule, IC50 results are on record in patent US8487103B2 (Roche Palo Alto LLC, priority 2009, dated 2013).

In this assay the target is HCV polymerase (NS5B570n-Con1) (Hepatitis C virus genotype 1b, UniProt Q9WMX2). Put plainly: HCV NS5B RNA Polymerase Activity. The settings on record: read-out: IC50 HCV Polymerase Activity; NS5B570n-Con1, cIRES RNA template, tritiated UTP incorporation. The assay is classed as biochemical, HCV Con1 strain. The procedure: The enzymatic activity of HCV polymerase (NS5B570n-Con1) was measured as the incorporation of radiolabeled nucleotide monophosphates into acid insoluble RNA products. Unincorporated radiolabeled substrate was removed by filtration and scintillant was added to the washed and dried filter plate containing radiolabeled RNA product. The amount of RNA product generated by NS5B570-Con1 at the end of the reaction was directly proportional to the amount of light emitted by the scintillant.
The N-terminal 6-histidine tagged HCV polymerase, derived from HCV Con1 strain, genotype 1b (NS5B570n-Con1) contains a 21 amino acid deletion at the C-terminus relative to the full-length HCV polymerase and was purified from E. coli strain BL21(DE) pLysS. The construct, containing the coding sequence of HCV NS5B Con1 (GenBank accession number AJ242654) was inserted into the plasmid construct pET 17b, downstream of a T7 promoter expression cassette and transformed into E. coli. […]
The amount of light emitted from the scintillant was converted to counts per minute (CPM) on a Topcount® plate reader (Perkin-Elmer, Energy Range: Low, Efficiency Mode Normal, Count Time: 1 min, Background Subtract: none, Cross talk reduction: Off).
Data was analyzed in Excel® (Microsoft) and ActivityBase® (Idbs®). […] All data was expressed as a percentage of the positive control. […]

Turning to `COc1c(C(C)(C)C)cc(-c2cn(C)c(=O)[nH]c2=O)c2ncc(N3CC[C@H](CNS(C)(=O)=O)C3)cc12`, the IC50 was found to be 6.6 nM.
